Assay results as given in patent US3945994A, “Novel acid compounds” (Gist-Brocades N.V., priority 1973, dated 1976).
In brackets after ≈: the same amount, converted by molar mass.

Assays:
Experiment in all cases: agar serial dilution test, MIC
Conditions in all cases: 24 hours at 37°C
[1] = tested on: Brucella melitensis A 488
Proteus morganii 2241 = type: cell-based
Escherichia coli U 20 = type: cell-based
Salmonella dublin P 43 = type: cell-based
[2] = tested on: Pseudomonas aeruginosa 2396; type: cell-based
[3] = tested on: Staphylococcus aureus A 355'; type: cell-based
[4] = tested on: Salmonella typhimurium R172; type: cell-based
Proteus mirabilis A 1200 = type: cell-based
[5] = tested on: Pseudomonas aeruginosa H 10; type: cell-based
[6] = tested on: Staphylococcus aureus A 2000; type: cell-based
[7] = tested on: Pseudomonas aeruginosa Wyeth A 1058; type: cell-based
[8] = tested on: Staphylococcus aureus A 321; type: cell-based
[9] = tested on: Diplococcus pneumoniae L 54; type: cell-based
Proteus mirabilis H 3 = type: cell-based
[10] = tested on: Klebsiella pneumoniae A 809; type: cell-based
Proteus rettgeri A 821 = type: cell-based
[11] = tested on: Streptococcus faecalis L 80; type: cell-based
Proteus mirabilis L 93 = tested on: Proteus mirabilis L 93
Shigella equirulis T 3 = tested on: Shigella equirulis T 3
[12] = tested on: Pasteurella multocida A 723; type: cell-based
[13] = tested on: Staphylococcus aureus A 2001; type: cell-based
[14] = tested on: Streptococcus haemolyticus A 266; type: cell-based

`CCOP(=O)(O)NC(=O)N[C@@H](C(=O)N[C@@H]1C(=O)N2C(C(=O)O)=C(C)CS[C@H]12)c1ccccc1` was tested. Which MIC [1] did it give?
Its MIC is 25 µg/mL (≈ 50.2 µM).

And the MIC (Proteus morganii 2241)?
Its MIC is > 100 µg/mL.

What about the MIC (Escherichia coli U 20) of the same molecule?
The MIC was > 100 µg/mL.

And the MIC (Salmonella dublin P 43)?
The MIC was 50 µg/mL (≈ 100 µM).

What about the MIC [2] of the same molecule?
Its MIC is > 100 µg/mL.

What about the MIC [3] of the same molecule?
The MIC was 100 µg/mL (≈ 201 µM).

And the MIC [4]?
Its MIC is > 100 µg/mL.

What about the MIC (Proteus mirabilis A 1200) of the same molecule?
Its MIC is 100 µg/mL (≈ 201 µM).

What about the MIC [5] of the same molecule?
Its MIC is > 100 µg/mL.

And the MIC [6]?
Its MIC is 50 µg/mL (≈ 100 µM).

What about the MIC [7] of the same molecule?
The MIC was > 100 µg/mL.

What about the MIC [8] of the same molecule?
Its MIC is 25 µg/mL (≈ 50.2 µM).

And the MIC [9]?
The MIC was > 100 µg/mL.

And the MIC (Proteus mirabilis H 3)?
The MIC was 25 µg/mL (≈ 50.2 µM).

What about the MIC [10] of the same molecule?
The MIC was 50 µg/mL (≈ 100 µM).

What about the MIC (Proteus rettgeri A 821) of the same molecule?
Its MIC is 6 µg/mL (≈ 12 µM).

What about the MIC [11] of the same molecule?
Its MIC is > 100 µg/mL.

For “Pivaloyloxymethyl D-6 [α-{3-(diphenoxyphosphinyl)-ureido}-benzylcarbonamido]-penicillanate”, which MIC (Proteus mirabilis L 93) is on record?
The MIC was > 100 µg/mL.

What about the MIC (Shigella equirulis T 3) of the same molecule?
Its MIC is > 100 µg/mL.

And the MIC (Proteus morganii 2241)?
The MIC was > 100 µg/mL.

What about the MIC (Escherichia coli U 20) of the same molecule?
The MIC was > 100 µg/mL.

What about the MIC [12] of the same molecule?
Its MIC is > 100 µg/mL.

And the MIC (Salmonella dublin P 43)?
The MIC was > 100 µg/mL.

What about the MIC [2] of the same molecule?
Its MIC is > 100 µg/mL.

What about the MIC [3] of the same molecule?
The MIC was > 100 µg/mL.

What about the MIC [4] of the same molecule?
The MIC was > 100 µg/mL.

And the MIC (Proteus mirabilis A 1200)?
The MIC was > 100 µg/mL.

What about the MIC [5] of the same molecule?
The MIC was > 100 µg/mL.

What about the MIC [6] of the same molecule?
The MIC was > 100 µg/mL.

What about the MIC [13] of the same molecule?
Its MIC is > 100 µg/mL.

What about the MIC [7] of the same molecule?
Its MIC is > 100 µg/mL.

What about the MIC [8] of the same molecule?
The MIC was 100 µg/mL.

And the MIC [9]?
Its MIC is 50 µg/mL.

And the MIC (Proteus mirabilis H 3)?
The MIC was > 100 µg/mL.

What about the MIC [10] of the same molecule?
The MIC was > 100 µg/mL.

And the MIC (Proteus rettgeri A 821)?
The MIC was > 100 µg/mL.

What about the MIC [11] of the same molecule?
Its MIC is > 100 µg/mL.

`CC1(C)S[C@@H]2[C@H](NC(=O)[C@H](NC(=O)NP(=O)(Nc3ccccc3)Nc3ccccc3)c3ccccc3)C(=O)N2[C@H]1C(=O)O` was tested. Which MIC (Proteus mirabilis L 93) did it give?
The MIC was 0.3 µg/mL (≈ 0.482 µM).

And the MIC (Shigella equirulis T 3)?
Its MIC is 1.5 µg/mL (≈ 2.41 µM).

What about the MIC [1] of the same molecule?
The MIC was 0.5 µg/mL (≈ 0.803 µM).

And the MIC (Proteus morganii 2241)?
The MIC was 25 µg/mL (≈ 40.2 µM).

What about the MIC (Escherichia coli U 20) of the same molecule?
The MIC was 25 µg/mL (≈ 40.2 µM).

What about the MIC [12] of the same molecule?
The MIC was 1.5 µg/mL (≈ 2.41 µM).

And the MIC [2]?
Its MIC is 25 µg/mL (≈ 40.2 µM).

And the MIC [3]?
The MIC was 3 µg/mL (≈ 4.82 µM).

And the MIC [4]?
The MIC was 25 µg/mL (≈ 40.2 µM).

And the MIC (Proteus mirabilis A 1200)?
The MIC was 6 µg/mL (≈ 9.64 µM).

And the MIC [14]?
Its MIC is 0.03 µg/mL (≈ 0.0482 µM).

And the MIC [5]?
The MIC was 100 µg/mL (≈ 161 µM).

What about the MIC [6] of the same molecule?
Its MIC is 3 µg/mL (≈ 4.82 µM).

And the MIC [13]?
The MIC was 3 µg/mL (≈ 4.82 µM).

And the MIC [7]?
The MIC was 25 µg/mL (≈ 40.2 µM).

And the MIC [8]?
Its MIC is 0.25 µg/mL (≈ 0.402 µM).

What about the MIC [9] of the same molecule?
The MIC was 0.5 µg/mL (≈ 0.803 µM).

And the MIC [10]?
Its MIC is 25 µg/mL (≈ 40.2 µM).

What about the MIC [11] of the same molecule?
Its MIC is 3 µg/mL (≈ 4.82 µM).

With `CCOP(=S)(NC(=O)N[C@@H](C(=O)N[C@@H]1C(=O)N2[C@@H]1SC(C)(C)[C@@H]2C(=O)O)c1ccccc1)OCC` as the molecule, how does the MIC (Proteus mirabilis L 93) read?
Its MIC is 6 µg/mL (≈ 11 µM).

And the MIC (Shigella equirulis T 3)?
Its MIC is 6 µg/mL (≈ 11 µM).

What about the MIC [1] of the same molecule?
Its MIC is 0.5 µg/mL (≈ 0.918 µM).

And the MIC (Proteus morganii 2241)?
Its MIC is 100 µg/mL (≈ 184 µM).

And the MIC (Escherichia coli U 20)?
Its MIC is 50 µg/mL (≈ 91.8 µM).

And the MIC [12]?
The MIC was 1.5 µg/mL (≈ 2.75 µM).

What about the MIC [2] of the same molecule?
Its MIC is 100 µg/mL (≈ 184 µM).

What about the MIC [3] of the same molecule?
The MIC was 25 µg/mL (≈ 45.9 µM).

What about the MIC (Proteus mirabilis A 1200) of the same molecule?
Its MIC is 25 µg/mL (≈ 45.9 µM).

And the MIC [14]?
The MIC was 0.03 µg/mL (≈ 0.0551 µM).

What about the MIC [5] of the same molecule?
The MIC was > 100 µg/mL.

What about the MIC [6] of the same molecule?
Its MIC is 6 µg/mL (≈ 11 µM).

What about the MIC [13] of the same molecule?
Its MIC is 3 µg/mL (≈ 5.51 µM).

What about the MIC [7] of the same molecule?
The MIC was 100 µg/mL (≈ 184 µM).

And the MIC [8]?
Its MIC is 1 µg/mL (≈ 1.84 µM).

What about the MIC [9] of the same molecule?
The MIC was 0.3 µg/mL (≈ 0.551 µM).

And the MIC [10]?
Its MIC is 25 µg/mL (≈ 45.9 µM).

What about the MIC [11] of the same molecule?
The MIC was 3 µg/mL (≈ 5.51 µM).

For `CCSP(=O)(NC(=O)N[C@@H](C(=O)N[C@@H]1C(=O)N2[C@@H]1SC(C)(C)[C@@H]2C(=O)O)c1ccccc1)SCC`, which MIC (Proteus mirabilis L 93) is on record?
Its MIC is 1.5 µg/mL (≈ 2.68 µM).

What about the MIC (Shigella equirulis T 3) of the same molecule?
The MIC was 1.5 µg/mL (≈ 2.68 µM).

What about the MIC [1] of the same molecule?
Its MIC is 0.5 µg/mL (≈ 0.892 µM).

And the MIC (Proteus morganii 2241)?
Its MIC is 100 µg/mL (≈ 178 µM).

And the MIC [12]?
The MIC was 0.5 µg/mL (≈ 0.892 µM).

What about the MIC (Salmonella dublin P 43) of the same molecule?
The MIC was 3 µg/mL (≈ 5.35 µM).

What about the MIC [2] of the same molecule?
The MIC was 50 µg/mL (≈ 89.2 µM).

And the MIC [3]?
The MIC was 6 µg/mL (≈ 10.7 µM).

What about the MIC (Proteus mirabilis A 1200) of the same molecule?
Its MIC is 6 µg/mL (≈ 10.7 µM).

What about the MIC [14] of the same molecule?
The MIC was 0.06 µg/mL (≈ 0.107 µM).

And the MIC [5]?
Its MIC is 100 µg/mL (≈ 178 µM).

And the MIC [6]?
The MIC was 6 µg/mL (≈ 10.7 µM).

And the MIC [13]?
Its MIC is 6 µg/mL (≈ 10.7 µM).

What about the MIC [7] of the same molecule?
The MIC was 50 µg/mL (≈ 89.2 µM).

And the MIC [8]?
Its MIC is 0.5 µg/mL (≈ 0.892 µM).

What about the MIC [9] of the same molecule?
Its MIC is 0.25 µg/mL (≈ 0.446 µM).

And the MIC (Proteus mirabilis H 3)?
Its MIC is 6 µg/mL (≈ 10.7 µM).

And the MIC [10]?
Its MIC is 25 µg/mL (≈ 44.6 µM).

What about the MIC [11] of the same molecule?
The MIC was 3 µg/mL (≈ 5.35 µM).

`CC1=C(C(=O)O)N2C(=O)[C@@H](NC(=O)[C@H](NC(=O)NP(=O)(Oc3ccccc3)Oc3ccccc3)c3ccccc3)[C@H]2SC1` was tested. Which MIC (Proteus mirabilis L 93) did it give?
Its MIC is > 100 µg/mL.

And the MIC [1]?
The MIC was 25 µg/mL (≈ 40.2 µM).

And the MIC (Proteus morganii 2241)?
Its MIC is > 100 µg/mL.

What about the MIC (Escherichia coli U 20) of the same molecule?
The MIC was > 100 µg/mL.

What about the MIC [12] of the same molecule?
The MIC was 25 µg/mL (≈ 40.2 µM).

And the MIC (Salmonella dublin P 43)?
Its MIC is 100 µg/mL (≈ 161 µM).

And the MIC [2]?
Its MIC is > 100 µg/mL.

And the MIC [3]?
The MIC was 3 µg/mL (≈ 4.82 µM).

And the MIC [4]?
The MIC was > 100 µg/mL.

What about the MIC (Proteus mirabilis A 1200) of the same molecule?
Its MIC is > 100 µg/mL.

What about the MIC [14] of the same molecule?
Its MIC is 1 µg/mL (≈ 1.61 µM).

And the MIC [5]?
Its MIC is > 100 µg/mL.

What about the MIC [6] of the same molecule?
The MIC was 1.5 µg/mL (≈ 2.41 µM).

And the MIC [13]?
The MIC was 1.5 µg/mL (≈ 2.41 µM).

What about the MIC [7] of the same molecule?
Its MIC is > 100 µg/mL.

And the MIC [8]?
Its MIC is 1.5 µg/mL (≈ 2.41 µM).

And the MIC (Proteus mirabilis H 3)?
Its MIC is > 100 µg/mL.

What about the MIC [10] of the same molecule?
Its MIC is 100 µg/mL (≈ 161 µM).

And the MIC (Proteus rettgeri A 821)?
The MIC was 50 µg/mL (≈ 80.3 µM).

What about the MIC [11] of the same molecule?
Its MIC is > 100 µg/mL.
